Strings that start with PEPTIDE1 are HELM notation: dots part the residues, brackets hold end groups and non-standard residues.
test: general procedure: Fmoc solid-phase peptide synthesis; 2-chlorotrityl chloride resin; settings: whole synthesis

Question: Which isolated yield does the source give for PEPTIDE1{[Fmoc].F.F.D.K.Y}$$$$V2.0 here?
Answer: 99.7%

Question: Which isolated yield does the source give for PEPTIDE1{[Nap].F.F.D.K.Y}$$$$V2.0 here?
Answer: 99.8%

Question: For PEPTIDE1{[Npx].F.F.D.K.Y}$$$$V2.0, which isolated yield is on record?
Answer: 99.3%
